Tests used:
[1] = test system: Gray mold fungus (Botrytis cinerea); assay: Gray mold anti-germ test (Test Example C); conditions: for Gray mold anti-germ test (rate of inhibition): 50 ppm/well, Czapek-dox broth, 25°C for 3 days, absorbance 600 nm; for rate of inhibition: Test Example C, gray mold anti-germ test
Procedure: (§1) Gray mold fungus (Botrytis cinerea) Conidia were suspended in Czapek-dox broth and a suspension of 1 × 10^5 spores were prepared. The prepared spore suspension was seeded at 100 µl/well to a 96-well multiplate. In the test, each compound was dissolved in a dimethyl sulfoxide-methanol mixed solution (volume ratio: 9/1) and dispensed at 50 ppm/well. The absorbance of each well was measured at a wavelength of 600 nm using a photometer. The multiplate was incubated at 25°C for 3 days, followed by absorbance measurement again. The difference in absorbance between the treatment day and 3 days later was calculated, and the rate of inhibition was calculated from the ratio between the treatment group and the non-treatment group.

[2] = test system: Botrytis cinerea; assay: Tomato gray mold pot test (Test Example B); conditions: for Tomato gray mold pot test (control value): 250 ppm sprayed, 2.5 ml/pot, tomato variety Oogata Fukuju, degree of disease development 2 to 3 days after inoculation; for control value: Test Example B, tomato gray mold pot test
Procedure: Seeds of test plants (tomato variety: Oogata Fukuju) were planted and then cultivated until three first leaves appeared. In the test, each compound was dissolved in a dimethyl sulfoxide-methanol mixed solution (volume ratio: 9/1) and diluted into a concentration of 250 ppm with ion exchange water to obtain a chemical. The obtained chemical was sprayed to the test plants (2.5 ml/pot). After drying of the chemical, the plants were inoculated by spraying of 3 to 6 × 10^5 organisms/ml of a conidium suspension of Botrytis cinerea. The plants thus inoculated were left at room temperature of 23 to 25°C in a moist chamber for approximately 48 hours to promote the onset of the disease. The degree of disease development was investigated 2 to 3 days after inoculation, and effects of the chemical were evaluated.
(§2) The degrees of disease development in these Test Examples were evaluated by 0.05 when the degree of disease development in a plant having no onset of the disease was defined as 0 and the degree of disease development in a plant in a group without chemical treatment was defined as 3. From the degree of disease development, a control value was calculated according to the following expression.
(§3) Control value = 100{1−(n/3)} [formula] N = Degree of disease development in each chemical treatment group.

[3] = test system: Magnaporthe grisea; assay: Rice blast disease pot test (Test Example A); conditions: for Rice blast disease pot test (control value): 250 ppm sprayed, 2.5 ml/pot, rice variety Sachikaze, degree of disease development 6 to 8 days after inoculation; for control value: Test Example A, rice blast disease pot test
Procedure: Seeds of test plants (rice variety: Sachikaze) were planted and then cultivated until the second leaves appeared. In the test, each synthesized compound was dissolved in a dimethyl sulfoxide-methanol mixed solution (volume ratio: 9/1) and diluted into a concentration of 250 ppm with ion exchange water to obtain a chemical. The obtained chemical was sprayed to the test plants (2.5 ml/pot). After drying of the chemical, the plants were inoculated by spraying of 3 to 5 × 10^4 organisms/ml of a conidium suspension of Magnaporthe grisea. The plants thus inoculated were left at room temperature of 23 to 25°C in a moist chamber for approximately 24 hours to promote the onset of the disease. The degree of disease development was investigated 6 to 8 days after inoculation, and effects of the chemical were evaluated.
as §2, §3

[4] = test system: Anthracnose fungus (Glomerella cingulata); assay: Anthracnose anti-germ test (Test Example E); conditions: for Anthracnose anti-germ test (rate of inhibition): 50 ppm/well, Czapek-dox broth, 25°C for 3 days, absorbance 600 nm; for rate of inhibition: Test Example E, anthracnose anti-germ test
Procedure: The prepared spore suspension was seeded at 100 µl/well to a 96-well multiplate. In the test, each compound was dissolved in a dimethyl sulfoxide-methanol mixed solution (volume ratio: 9/1) and dispensed at 50 ppm/well. The absorbance of each well was measured at a wavelength of 600 nm using a photometer. The multiplate was incubated at 25°C for 3 days, followed by absorbance measurement again. The difference in absorbance between the treatment day and 3 days later was calculated, and the rate of inhibition was calculated from the ratio between the treatment group and the non-treatment group.

[5] = test system: Fusarium blight fungus (Fusarium graminearum); assay: Fusarium blight anti-germ test (Test Example D); conditions: for Fusarium blight anti-germ test (rate of inhibition): 50 ppm/well, Czapek-dox broth, 25°C for 3 days, absorbance 600 nm; for rate of inhibition: Test Example D, Fusarium blight anti-germ test
Procedure: as §1, with “Fusarium blight” for “Gray mold”, “(Fusarium graminearum)” for “(Botrytis cinerea)”

[6] = test system: Speckled leaf blotch fungus (Septoria tritici); assay: Speckled leaf blotch anti-germ test (Test Example F); conditions: for Speckled leaf blotch anti-germ test (rate of inhibition): 50 ppm/well, Czapek-dox broth, 25°C for 3 days, absorbance 600 nm; for rate of inhibition: Test Example F, speckled leaf blotch anti-germ test
Procedure: as §1, with “Speckled leaf blotch” for “Gray mold”, “(Septoria tritici)” for “(Botrytis cinerea)”

Compound	Gray mold anti-germ test (rate of inhibition) [1]	Tomato gray mold pot test (control value) [2]	Rice blast disease pot test (control value) [3]	Anthracnose anti-germ test (rate of inhibition) [4]	Fusarium blight anti-germ test (rate of inhibition) [5]	Speckled leaf blotch anti-germ test (rate of inhibition) [6]	rate of inhibition [1]	control value [2]	control value [3]	rate of inhibition [4]	rate of inhibition [5]	rate of inhibition [6]
Cc1ccc2c(ncn2C2=NC(C)(C)[S+]([O-])c3ccccc32)c1C (stereo not drawn)	H (H represents a control value or rate of inhibition of larger than 50%)	H (H represents a control value or rate of inhibition of larger than 50%)	H (H represents a control value or rate of inhibition of larger than 50%)	H (H represents a control value or rate of inhibition of larger than 50%)	L (L represents a control value or rate of inhibition of 50% or less)	L (L represents a control value or rate of inhibition of 50% or less)						
CCOCC1(C)N=C(c2cnn3cc(C)ccc23)c2ccccc2O1 (stereo not drawn)							H (H represents a control value or rate of inhibition of larger than 50%)	H (H represents a control value or rate of inhibition of larger than 50%)	H (H represents a control value or rate of inhibition of larger than 50%)	H (H represents a control value or rate of inhibition of larger than 50%)	H (H represents a control value or rate of inhibition of larger than 50%)	H (H represents a control value or rate of inhibition of larger than 50%)
CCC1(C)N=C(c2cnn3c(C)c(C)ccc23)c2ccccc2S1 (stereo not drawn)							H (H represents a control value or rate of inhibition of larger than 50%)	H (H represents a control value or rate of inhibition of larger than 50%)	H (H represents a control value or rate of inhibition of larger than 50%)	H (H represents a control value or rate of inhibition of larger than 50%)	H (H represents a control value or rate of inhibition of larger than 50%)	H (H represents a control value or rate of inhibition of larger than 50%)
Cc1cccc2c1OC(C)(C)N=C2n1cnc2ccccc21	H (H represents a control value or rate of inhibition of larger than 50%)	H (H represents a control value or rate of inhibition of larger than 50%)	H (H represents a control value or rate of inhibition of larger than 50%)	H (H represents a control value or rate of inhibition of larger than 50%)	L (L represents a control value or rate of inhibition of 50% or less)	L (L represents a control value or rate of inhibition of 50% or less)						
Cc1ccnc2c(C3=NC(C)(C4CC4)Oc4ccccc43)cnn12 (stereo not drawn)							H (H represents a control value or rate of inhibition of larger than 50%)	H (H represents a control value or rate of inhibition of larger than 50%)	H (H represents a control value or rate of inhibition of larger than 50%)	H (H represents a control value or rate of inhibition of larger than 50%)	H (H represents a control value or rate of inhibition of larger than 50%)	L (L represents a control value or rate of inhibition of 50% or less)
Cc1c(Cl)ccc2c1ncn2C1=NC(C)(C)Oc2c(F)cccc21	H (H represents a control value or rate of inhibition of larger than 50%)	L (L represents a control value or rate of inhibition of 50% or less)	L (L represents a control value or rate of inhibition of 50% or less)	H (H represents a control value or rate of inhibition of larger than 50%)	L (L represents a control value or rate of inhibition of 50% or less)	L (L represents a control value or rate of inhibition of 50% or less)						
CCCCCC1(C)N=C(c2cnn3cc(C)cnc23)c2cccc(F)c2O1 (stereo not drawn)							H (H represents a control value or rate of inhibition of larger than 50%)	H (H represents a control value or rate of inhibition of larger than 50%)	H (H represents a control value or rate of inhibition of larger than 50%)	H (H represents a control value or rate of inhibition of larger than 50%)	H (H represents a control value or rate of inhibition of larger than 50%)	H (H represents a control value or rate of inhibition of larger than 50%)
COc1cccc2c1OC(C)(C)N=C2n1cnc2c(OC)cccc21	L (L represents a control value or rate of inhibition of 50% or less)	L (L represents a control value or rate of inhibition of 50% or less)	L (L represents a control value or rate of inhibition of 50% or less)	L (L represents a control value or rate of inhibition of 50% or less)	L (L represents a control value or rate of inhibition of 50% or less)	L (L represents a control value or rate of inhibition of 50% or less)						
Cc1cccc2c1ncn2C1=NC(C)(C)Oc2ccccc21	H (H represents a control value or rate of inhibition of larger than 50%)	H (H represents a control value or rate of inhibition of larger than 50%)	H (H represents a control value or rate of inhibition of larger than 50%)	H (H represents a control value or rate of inhibition of larger than 50%)	H (H represents a control value or rate of inhibition of larger than 50%)	H (H represents a control value or rate of inhibition of larger than 50%)						
